According to ChEMBL document CHEMBL3286172, “Exploring the role of 2-chloro-6-fluoro substitution in 2-alkylthio-6-benzyl-5-alkylpyrimidin-4(3H)-ones: effects in HIV-1-infected cells and in HIV-1 reverse transcriptase enzymes” (J Med Chem, 2014):

Experiments:
[1] = Selectivity index, ratio of CC50 for human MT4 cells to EC50 for wild type HIV-1 NL4-3 infected in human MT4 cells; assay type: toxicity, cell-based; settings: read-out: Ratio CC50/EC50
Summary of the method: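 Ratio of CC50 to EC50, both from MTT readings in MT-4 cells at day 5. CC50 was taken in mock-infected cells and EC50 in cells infected with wild-type NL4-3. Values are means of at least two experiments.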

[2] = biological target: Human immunodeficiency virus type 1 reverse transcriptase (Human immunodeficiency virus 1) (UniProt Q72547)
[3] = tested on: Human immunodeficiency virus 1; experiment: Ratio of efavirenz EC50 to compound EC50 for wild type HIV-1 NL4-3 infected in human MT4 cells; assay type: functional

CCCCSc1nc(C(C)c2c(F)cccc2Cl)cc(=O)[nH]1 (racemic)
selectivity ratio [1]: > 243000

CCC(C)Sc1nc(C(C)c2c(F)cccc2Cl)c(C)c(=O)[nH]1 (racemic)
selectivity ratio [1]: > 5000
ID50 [2]: 0.3 nM
Ratio EC50 [3]: 23

CC[C@H](C)Sc1nc([C@@H](C)c2c(F)cccc2Cl)cc(=O)[nH]1
ID50 [2]: 547 nM

CC[C@@H](C)Sc1nc([C@H](C)c2c(F)cccc2Cl)cc(=O)[nH]1
ID50 [2]: 3.76 nM

CC[C@@H](C)Sc1nc([C@@H](C)c2c(F)cccc2Cl)c(C)c(=O)[nH]1
selectivity ratio [1]: > 50300
ID50 [2]: 14 nM

CC[C@H](C)Sc1nc([C@H](C)c2c(F)cccc2Cl)cc(=O)[nH]1 (racemic)
ID50 [2]: 26.9 nM

CC[C@H](C)Sc1nc([C@@H](C)c2c(F)cccc2Cl)c(C)c(=O)[nH]1
selectivity ratio [1]: > 12.8
ID50 [2]: 4660 nM

Cc1c([C@H](C)c2c(F)cccc2Cl)nc(SC(C)C)[nH]c1=O
selectivity ratio [1]: > 783000
ID50 [2]: 9 nM

Cc1c(C(C)c2c(F)cccc2Cl)nc(SC(C)C)[nH]c1=O (racemic)
selectivity ratio [1]: > 375000
Ratio EC50 [3]: 175

CC[C@@H](C)Sc1nc([C@H](C)c2c(F)cccc2Cl)c(C)c(=O)[nH]1
selectivity ratio [1]: > 1.17e+06
ID50 [2]: 1 nM

CC[C@@H](C)Sc1nc([C@@H](C)c2c(F)cccc2Cl)cc(=O)[nH]1
ID50 [2]: 40.5 nM

CCC(C)Sc1nc(C(C)c2c(F)cccc2Cl)cc(=O)[nH]1 (racemic)
ID50 [2]: 8 nM

CC[C@H](C)Sc1nc([C@H](C)c2c(F)cccc2Cl)c(C)c(=O)[nH]1 (racemic)
selectivity ratio [1]: > 1.6
ID50 [2]: 5920 nM

Cc1c([C@@H](C)c2c(F)cccc2Cl)nc(SC(C)C)[nH]c1=O
selectivity ratio [1]: > 169
ID50 [2]: 3350 nM
